This is an account of results in publication PMC8509808, “Characterization of the Chimeric PriB-SSBc Protein” (International Journal of Molecular Sciences, 2021).

The exact form of at least one protein or probe is not confirmed. Weaker means in comparison with the reference protein, sequence or condition of that experiment. Tags and fusion partners may be left off the protein sequences shown.

For the data set, the target named is T1, KpPriB (Klebsiella pneumoniae) (UniProt A6THB2).
T1 sequence (looked up, limits assumed): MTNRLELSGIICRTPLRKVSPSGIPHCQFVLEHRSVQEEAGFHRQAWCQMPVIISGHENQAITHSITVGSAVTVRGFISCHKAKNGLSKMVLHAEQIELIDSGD
The data set can be described thus: EMSA. The note with it: ND, smears, no stable complex up to 50 uM protein; EMSA: 20 mM Tris-HCl pH 8.0, 100 mM NaCl, 25 C, 30 min, 1.7 nM 32P-ssDNA; 8% native PAGE in TBE at 4 C; recombinant protein; label: 5'-32P; single-stranded DNA. On the technique in general: A gel shift assay detects complexes by their altered migration in electrophoresis.

Consider TTTTTTTTTTTTTTTTTTTT [dT20], for which the binding result is “binds more weakly”.
